# Results deposited as PubChem BioAssay AID504761 (Drosophila RNAi Screening Center, 2011).
# Screen: 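Fly genes whose silencing reduces dengue virus type 2 infection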 (primary screen)
# System: D.Mel-2 cells from Drosophila
# Reagents: long dsRNA against Drosophila genes
# Conditions: infection with dengue virus type 2; dose and infection time not stated
# Detection: 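Per well on two replicate plates, imaging gave the percent of cells positive for viral envelope protein, ranked by infection, and a nuclear count of cells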
# Reading the numbers: infection score: higher = more virus-infected cells; cell count: higher = more cells in the well
# Active means: 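Low infection ranks in the two replicates (chance level up to 0.065) followed by a retest with a 1.5-fold or larger significant decrease, p below 0.05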
# Meaning of the calls: active = confirmed: knock-down lowers infection; inactive = not picked or not confirmed
# In all, the deposit lists about 22,000 reagents; below is an unselected part of those with a known target gene and a result. Of all reagents, 116 (0.52%) got an active call. 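Calls depend on retest data that are not deposited; infection was ranked per plate without normalising between plates; the unit of the infection score is not given.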 The raw values are shown without normalisation. A plus sign joins genes that one reagent is predicted to hit. Reagent sequences are not shown. Not stated in the record: the amount of reagent, the time to read-out.
target,PubChem SID,"infection score, replicate 1","infection score, replicate 2","cell count, replicate 1","cell count, replicate 2",Outcome
nau,SID104196803,25.4,9.69,4684,5293,inactive
CG15368,SID104202648,5.2,1.74,6014,6568,inactive
CG15368,SID104204392,4.49,8.44,6687,5947,inactive
CG13135,SID104182024,4.06,1.84,6773,6415,inactive
CG13135,SID104206201,25.1,14.9,5419,5734,inactive
CG15169,SID104182262,2.04,19.1,6778,5923,inactive
CG31274 + MESK4,SID104192994,5.9,2.14,6082,5457,inactive
DCX-EMAP,SID104189804,1.74,2.07,5800,6338,inactive
DCX-EMAP,SID104189805,3.63,1.39,5752,6201,inactive
DCX-EMAP,SID104202761,8.01,20.6,7028,6520,inactive
CG7133,SID104191590,1.82,3.28,6487,6705,inactive
RpS9,SID104191065,11.5,9.62,4275,4274,inactive
Nach,SID104187270,10.9,2.18,6557,641,inactive
CG32793,SID104197937,0.2,5.69,492,4220,inactive
CG32793,SID104197986,,8.74,397,5376,inactive
CG32793,SID104207281,25.3,21.2,6170,5489,inactive
Sec61gamma,SID104199362,11.1,5.12,5760,6464,inactive
Sec61gamma,SID104204108,1.72,4.3,6470,6367,inactive
Pfdn4,SID104189553,4.57,6.34,6237,6056,inactive
Pfdn4,SID104205280,5.74,12,6537,5389,inactive
Nhe2,SID104182964,,5.75,652,6677,inactive
Nhe2,SID104183169,13.6,8.09,3693,6194,inactive
CG18540,SID104186559,12.3,13.4,5081,5610,inactive
CG18540,SID104205535,9.01,6.98,6682,5787,inactive
Grip75,SID104183129,2.61,1.51,6772,6757,inactive
CG42566,SID104183741,1.54,4.72,6428,6588,inactive
NimB5,SID104181677,19,,5205,537,inactive
CG9662,SID104180515,8.16,3.55,6485,6797,inactive
Hel89B,SID104196492,2.38,7.38,6899,6630,inactive
Hel89B,SID104201285,0.51,9.15,6117,3531,inactive
CG13215,SID104186129,4.29,3.94,6593,6877,inactive
Trxr2,SID104191692,6.46,7.24,6623,6479,inactive
Trxr2,SID104204064,1.79,9.35,6719,6633,inactive
dikar,SID104189491,8.09,4.69,6375,6715,inactive
dikar,SID104201783,1.04,3.89,6614,6856,inactive
dikar,SID104205106,10.8,3.71,5260,5795,inactive
CG32473,SID104194144,7.87,6.03,6834,6967,inactive
CG32473,SID104196238,24.3,32.8,5497,5408,inactive
ppk16,SID104182528,4.19,7,6155,6513,inactive
fng,SID104191247,3.45,3.03,6326,6303,inactive
fng,SID104191679,19.2,12.5,5871,6310,inactive
fng,SID104201552,11.6,1.35,5482,3415,inactive
CG3330,SID104195269,4.33,8.31,6577,6537,inactive
HmgZ,SID104183680,0.56,0.03,6408,6305,inactive
HmgZ,SID104184412,3.85,6.3,5978,6313,inactive
Skeletor (retired record),SID104194697,5.41,,4030,478,inactive
Skeletor (retired record),SID104194698,13.2,5.15,6423,6569,inactive
CG7453,SID104199838,8.09,1.08,5807,5574,inactive
CG7453,SID104203274,5.56,2.05,6300,6108,inactive
EMC2B,SID104195298,3.64,11.6,6078,5161,inactive
PGRP-SC1a,SID104186274,2.92,11.1,6709,3741,inactive
Cpr,SID104183085,1.08,4.5,6200,6114,inactive
Cpr,SID104206955,8.15,8.1,5252,2878,inactive
CG9449,SID104190865,2.26,6.42,6149,5809,inactive
CG9449,SID104204235,3.32,11.8,6384,5900,inactive
Eip74EF,SID104190952,4.18,10.6,5617,4172,inactive
Eip74EF,SID104202889,2.14,2.1,5946,5868,inactive
Sk1,SID104199566,5.89,3.45,6489,6792,inactive

Ordered by “infection score, replicate 2” (highest first): 6 of the entries above.
target,PubChem SID,"infection score, replicate 1","infection score, replicate 2","cell count, replicate 1","cell count, replicate 2",Outcome
CG32473,SID104196238,24.3,32.8,5497,5408,inactive
ppk16,SID104182528,4.19,7,6155,6513,inactive
CG32473,SID104194144,7.87,6.03,6834,6967,inactive
dikar,SID104201783,1.04,3.89,6614,6856,inactive
dikar,SID104205106,10.8,3.71,5260,5795,inactive
fng,SID104191247,3.45,3.03,6326,6303,inactive
